Biological target: H3 stem with I32HA2 (influenza A virus H3N2 A/Finland/486/2004)
Experiment: BLI

B1: AG2-G02 Fab (Fab, V domains shown)
VH: VQLVQSGAEMKKPGASVKVSCKASGYTFSAYYIHWVRQAPGQGLEWMGRINTDSGGTNFAQQFEGRVTMTRDTSISTAYMELSSLRSDDTAVYYCARGYDFWLGSYRAGGWFDPWGQGTLVTVSS
VL: [no letters for about 100 residues]GFTFGPGTKVDIK
In the case of B1, the Kd is reported as 0.21 nM.

Source: publication PMC12658140
